The values below come from publication PMC7029142, “Analysis of Dot/Icm Type IVB Secretion System Subassemblies by Cryoelectron Tomography Reveals Conformational Changes Induced by DotB Binding” (mBio, 2020).

Data set [1] addresses DotB (VirB11-related) ATPase (L. pneumophila (endogenous in strains derived from LP01 and LP02)). The data set can be described thus: cryo-EM structure.
The data set “cryo-EM structure” deals with the molecule itself. Nature of the data set: cryo-EM structure.

DotB (VirB11-related) ATPase (enzyme): the stoichiometry N in data set [1] was found to be 6.

B1: DotO (VirB4-related) ATPase (enzyme)
chain: MANWSESFFEGVDTFFAWLSTSLKQTTESYIDLETADSPTVLVNHDGSLLSVLKIEGITGLAGPEEFERLVEGLANSFQAAMGRPGHALQVYFSHDKQNIVKMIKDIYDPAEATASRLELNLRDLFEERVNYLSQYCAEERVYFVLYTRPFNLASDQLKAANKAKMKMIKDTKAPPFKNTQTIFAAVPEIRDTHDAYVRAILNDLDALNVIAKLLEVHDAVHAIRMTGDPDYTADDWRATLPGDKIPVRELNNFEGDPSDLLWPPLSRQVLPRDAEIIDLRTVRVGDKIYASTYIDLFPKDVRPFISLFSRILPSHVPWKISFLLESEGLSTIKLKGLLAAILSFSSAQNRLISDSVNLLKYIQLNTDEAIVRLRVVATTWAPEGNIPLLRRRSSELVKAIEGWGSTDVSEICGDPFAGFVSSMLATTLNSSAVASVAPLSDVISMLPITRPASPWKTGALLFRTPDGKPWPFQPGSTEQTTWIDLVYARPGSGKSVLSNALNLALCLSGGLMRLPRIAIIDIGPSSSGLISLLKEALPASKRHLVAYHRLRMTPDYSINPFDTQLGCRYPTALERSFLVNFMTLLTTPLGAAKPYDGMADLAGMVVDELYKSMADEFNPTPYAPGIEEFIDGILEEIGFVRDAKSTWWEVTDALYSAGFVHEAMLAQRYAMPLLADAASICRTPSIEDLYEKITAPTGESLINAFSRMISSAVREYPILSRVTSFDIGDARVVSLDLDEVAKSGGDAADRQTAVMYMLARYVLARHYYLTEESLNNVPEQYKEYHKQRVLEIREDHKRIVYDEFHRTAKSSAVREQVIIDMREGRKWKVQISLLSQAVDDFDPVMIDFATAIYVMDAGPSQAVEKTSQIFGLSETAKIALRTRVHGPRQGGATFLAQFATKTGINVQLLTLTLGPVELWAFSTTAEDATVRNLLYRHLGPSEARRLLAALFPNGTVTKELEARLASMKQKVGLIEDDEREGMINQLVNDILDAYSKDPNVKSLPAKVG
Regarding B1, in the data set “cryo-EM structure”, the “stoichiometry N” value was 12.
